For one compound, Km results are on record in PMC3766598 (BioMed Research International, 2013).

In the assay the test system is Rhombeobin (LMR-47). To be noted: optimal pH and temperature (standard assay 10 mM Tris-HCl pH 8.0, 10 mM CaCl2, 100 mM NaCl, 37°C); 0.0095-10 mM substrate.

Broadly, the Km is the concentration of substrate that gives half-maximal velocity. In the case of `N=C(N)NCCC[C@H](NC(=O)c1ccccc1)C(=O)Nc1ccc([N+](=O)[O-])cc1` [BApNA, N-benzoyl-L-arginine ρ-nitroanilide], the Km is 800 µM.
